A mixed list of measured activities; the numbers were collected in NIAID ChemDB.

All rows: whole-cell or culture tests; agent: HIV-1; measure: EC50

Lines come from different laboratories, so protocols vary. An empty or dashed field is not shown. ECn: concentration that inhibits the pathogen or its effect by n%.

structure | read by | strain | changes | cells | result
Nc1ccn([C@H]2CC[C@@H](CO)O2)c(=O)n1 | MTT | IIIB | - | MT-4 | 0.8 µg/mL
Cc1cn([C@H]2C[C@H](N=[N+]=[N-])[C@@H](CO)O2)c(=O)[nH]c1=O | p24 / ELISA | KM018 | - | PBMC | 0.253 µM
Cc1ccc(C(=O)Nc2ccc(S(=O)(=O)O)c3cc(S(=O)(=O)O)cc(S(=O)(=O)O)c23)cc1NC(=O)c1cccc(NC(=O)Nc2cccc(C(=O)Nc3cc(C(=O)Nc4ccc(S(=O)(=O)O)c5cc(S(=O)(=O)O)cc(S(=O)(=O)O)c45)ccc3C)c2)c1 | cytopathic effect | LAV Laboratory strain | - | ATH8 | <50 µg/mL
Nc1nc(=O)n([C@@H]2CS[C@H](CO)O2)cc1F | - | BI-RG587-resistant | - | HT4 + HT4-6C | 0.02 µM
CCOP(=O)(OCC)OC[C@@H]1C=C[C@H](n2cc(C)c(=O)[nH]c2=O)O1 | - | - | - | CEM + CEM-SS | 3.5 µM
O=C1CN=C(c2ccc[nH]2)c2cc(Cl)ccc2N1 | - | - | - | HeLa (TAT) + HeLa | ~1 µM
CCOc1ccc(Cc2[nH+]c(C)cc3cc(OCC)c(OCC)cc23)cc1OCC | p24 | IIIB | - | H9 | 82.8 µg/mL
COc1ccc(S(=O)(=O)N(CC(C)C)C[C@@H](O)[C@H](Cc2cccc(-c3cccc(OC)c3)c2)NC(=O)O[C@H]2CCOC2)cc1 | MTT | LAI | - | MT-2 | 0.381 µM
O=S1(c2ccccc2)=NC(=S)Nc2ccccc21 | cytopathic effect / XTT | RF | - | MT-2 | 0.44 µM
COc1cc(CO)c(Cc2nccc3cc(OC)c(OC)cc23)cc1OC | p24 | IIIB | - | H9 | >18.8 µg/mL
Cc1cn([C@H]2CC[C@@H](COP(=O)(OC[C@@H]3CC[C@H](n4cc(C)c(=O)[nH]c4=O)O3)Oc3ccc(S(C)(=O)=O)cc3)O2)c(=O)[nH]c1=O | cytopathic effect / trypan blue | IIIB | - | MT-4 | 177 µM
Nc1ncnc2c1ncn2[C@H]1CC[C@@H](CO)O1 | p24 | LAV | - | ATH8 | 5 µM
Cc1cn([C@H]2C=C[C@@H](COP(=O)(O)O)O2)c(=O)[nH]c1=O | cytopathic effect | - | - | CEM + CEM-SS | 0.73 µM
Cc1cccc([C@H]2c3ccccc3S(=O)(=O)N2C)c1 | - | - | - | - | 0.037 µM
Nc1ncnc2c1ncn2C[C@H](O)CO | cytopathic effect | LAV Laboratory strain | - | ATH8 | >100 µg/mL
Cc1cc([N+](=O)[O-])ccc1NC(=O)CSc1sc(N)nc1-c1ccc(Br)cc1Br | MTT | IIIB | - | MT-4 | >30.81 µM
COc1cc2c(c(O)c1CC=C(C)C)C(=O)C(c1ccc(O)cc1O)CO2 | MTT | IIIB | - | MT-4 | >20 µg/mL
CCCCCCCC(=O)O[C@]12C(C3C(OO)C(CO)=C[C@]4(O)C(=O)C(C)=CC4[C@@]3(O)[C@H](C)[C@H]1OC(=O)c1ccccc1)C2(C)C | p24 / ELISA | NL4-3 | - | MT-4 | <0.005 µM
COc1ccc(Oc2coc3cc(O)cc(O)c3c2=O)c(OC)c1 | cytopathic effect / MTT | IIIB | - | MT-4 | >100 µg/mL
Nc1ccn([C@H]2CC[C@@H](CO)O2)c(=O)n1 | - | IIIB | - | MT-2 | 0.6 µM
CCC1NCCc2cc(O)c(O)cc21 | p24 | IIIB | - | H9 | 1.52 µg/mL
CN1[C@@H](c2cccc(Cl)c2)c2ccccc2S1(=O)=O | - | - | - | - | 0.074 µM
Cc1cn([C@H]2C[C@H](N=[N+]=[N-])[C@@H](CO)O2)c(=O)n(N)c1=O | cytopathic effect / MTT | BRU | - | CEM-C113 + CEM/C113 | 0.03 µM
CCCc1cc(=O)oc2c3c(c4c(c12)OC(C)(C)C=C4)OC(CCl)CC3=O | - | NL4-3 | - | PBMC | 0.052 µM
CC(C)=CCc1c(O)cc2oc(-c3ccc(O)c(O)c3)c(O)c(=O)c2c1O | cytopathic effect / MTT | IIIB | - | MT-4 | >40 µg/mL
CCOCn1c([Se]c2ccccc2)c(C)c(=O)[nH]c1=O | cytopathic effect / MTT | IIIB | - | MT-2 | 3 µM
CC(C)[C@H](NC(=O)N(C)Cc1ccccn1)C(=O)N[C@@H](Cc1ccccc1)[C@H](O)[C@H](O)[C@H](Cc1ccccc1)NC(=O)[C@@H](NC(=O)N(C)Cc1ccccn1)C(C)C | cytopathic effect / trypan blue | IIIB | - | ATH8 | <4 µM
Nc1ccn([C@H]2CC[C@@H](CO)O2)c(=O)n1 | p24 | LAV | - | H9 | <10 µM
Cc1cn([C@H]2C=C[C@@H](COP(=O)(OCc3ccccc3)OCc3ccccc3)O2)c(=O)[nH]c1=O | cytopathic effect | - | - | CEM + CEM TK- | 5.5 µM
CCc1cc(NCc2nc3c(Cl)ccc(Cl)c3o2)c(=O)[nH]c1C | p24 | Clinical isolate (RT M41L) | RT-M41L | PBMC | <0.1 µM
O=S1(c2ccccc2)=NC(=S)Nc2ccc(Cl)cc21 | cytopathic effect / XTT | IIIB | - | MT-2 | 0.04 µM
Cc1cn([C@H]2C[C@H](N=[N+]=[N-])[C@@H](CO)O2)c(=O)[nH]c1=O | MTT | - | - | CEM.SS + MT-4 | 0.157 µg/mL
Cc1ccccc1NC(=O)CSc1sc(N)nc1-c1ccc(Br)cc1Br | MTT | IIIB | - | MT-4 | >23.96 µM
CC(C)=CCc1c([C@@H]2CCc3ccc(O)cc3O2)cc2c(c1O)OC(C)(C)C=C2 | MTT | IIIB | - | MT-4 | >20 µg/mL
COc1cc2c(cc1OC)CC[NH+]=C2 | p24 | IIIB | - | H9 | <0.1 µg/mL
O=c1oc(-c2ccccc2)cc(O)c1C(CC1CC1)SCc1ccccc1 | - | IIIB | - | H9 | 33 µM
CCOCn1c(Sc2ccccc2)c(C)c(=O)[nH]c1=O | cytopathic effect / MTT | IIIB | - | MT-2 | 1.3 µM
CC1(C)C=Cc2c(ccc3c2OC[C@@H](c2ccc(O)cc2O)C3)O1 | MTT | IIIB | - | MT-4 | 2 µg/mL
CCCC1NCCc2cc(O)c(O)cc21 | p24 | IIIB | - | H9 | 2.88 µg/mL
CC(C)=CCc1cc(C2CC(=O)c3c(O)cc(O)c(CC=C(C)C)c3O2)cc(O)c1O | MTT | IIIB | - | MT-4 | >100 µg/mL
O=c1oc(-c2ccccc2)cc(O)c1C(SC1CCCC1)C1CCCC1 | - | IIIB | - | H9 | 14 µM
Cc1cn([C@H]2C[C@@H](n3cc([N+](=O)[O-])nc3C)[C@H](O)[C@@H](CO)O2)c(=O)[nH]c1=O | p24 | - | - | MT-4 | >100 µM
CCOCn1c([Se]c2ccccc2)c(CC)c(=O)[nH]c1=O | cytopathic effect / MTT | IIIB | - | MT-2 | 0.1 µM
CCN1c2ncccc2N(C)C(=S)c2oc3cccnc3c21 | cytopathic effect | IIIB | - | CEM | 0.03 µM
CCC[C@@]1(CCc2ccccc2)CC(O)=C([C@H](CC)c2cccc(NS(=O)(=O)c3ccc(C(F)(F)F)cn3)c2)C(=O)O1 | - | IIIB | - | MT-4 | 0.7 µM
C[C@H](Cn1cnc2c(N)nc(N)nc21)OCP(=O)(O)O | - | IIIB | - | MT-2 | 2 µM
Cc1cn([C@H]2C=C[C@@H](CO)O2)c(=O)[nH]c1=O | - | IIIB | - | MT-2 | 6 µM
Cc1ccnc2c1NC(=O)c1cccnc1N2C1CC1 | - | - | RT-L74V K103N | MT-4 | <3 µM
Cc1ccc(-c2c(C)c(-c3ccc(C)c(C)c3)c3c(c2C(OC(C)(C)C)C(=O)O)CCC(=O)N3C)cc1C | MTT | IIIB | - | MT-4 | 0.01 µM
O=C(CSc1sc(Cl)nc1-c1ccc(Br)cc1Br)Nc1cccnc1Cl | MTT | IIIB | K103N | MT-4 | >23.24 µM
NC(=O)c1[nH]nc([C@@H]2O[C@H](CO)[C@@H](O)[C@H]2O)c1O | cytopathic effect | LAV Laboratory strain | - | ATH8 | >100 µg/mL
Cc1cn([C@@H]2C[C@H](n3cc([N+](=O)[O-])nc3C)[C@@H](C(O)CO)O2)c(=O)[nH]c1=O | p24 | - | - | MT-4 | >100 µM
Cn1cc(C(=O)O)c(=O)c2cc(F)c(N3CC=C(c4ccccc4)CC3)c(C(F)(F)F)c21 | p24 | IIIB | - | MOLT-4/U1(HIV-1(IIIB)) + MOLT-4 | 0.06 µM
CSc1ccc(OP(=O)(OC[C@@H]2CC[C@H](n3cnc4c(=O)[nH]cnc43)O2)OC[C@@H]2CC[C@H](n3cnc4c(=O)[nH]cnc43)O2)cc1 | cytopathic effect / trypan blue | IIIB | - | MT-4 | ≥250 µM
Nc1nc(=O)n([C@@H]2CC[C@H](CO)O2)cc1F | - | IIIB | - | MT-2 | 0.45 µM
C[C@H](Cn1cnc2c(N)ncnc21)OCP(=O)(O)O | - | IIIB | - | MT-2 | 11 µM
Cc1cn([C@@H]2CC(n3nnc4ccccc43)C(C(O)CO)O2)c(=O)[nH]c1=O | p24 | - | - | MT-4 | >100 µM
CCN1c2ncccc2N(C)C(=S)c2sc3cccnc3c21 | cytopathic effect | MN | - | C8166 | 0.0025 µM
CCOCn1c(Sc2ccccc2)c(CC)c(=O)[nH]c1=O | cytopathic effect / MTT | LAI | - | MT-2 | <0.04 µM
Cc1cc(C#N)cc(C)c1Oc1nc(Nc2ccc(C#N)cc2)nc(N)c1Br | MTT | IIIB | K103N | MT-4 | 0.00184 µM
Cc1cn([C@H]2CC[C@@H](CO)O2)c(=O)[nH]c1=O | p24 | LAV | - | H9 | >100 µM
COc1ccc2c(c1)N(C(=O)OC(C)C)[C@@H](CSC)C(=S)N2 | - | - | - | Primary monocytes/macrophages + Monocyte | 0.001 µM
CC1(C)C=Cc2c(cc(O)c3c(=O)c4c(oc23)-c2ccc(O)cc2OC(C(C)(C)OO)C4)O1 | cytopathic effect / MTT | IIIB | - | MT-4 | >40 µg/mL
CSc1ccc(OP(=O)(OC[C@@H]2C=C[C@H](n3cnc4c(N)ncnc43)O2)OC[C@@H]2C=C[C@H](n3cnc4c(N)ncnc43)O2)cc1 | cytopathic effect / trypan blue | IIIB | - | MT-4 | 118 µM
C[C@H](Cn1cnc2c(N)ncnc21)OCP(=O)(OCOC(=O)C(C)(C)C)OCOC(=O)C(C)(C)C | - | IIIB | - | MT-2 | 0.5 µM
Cc1cn([C@H]2C=C[C@@H](COP(=O)(O)OCc3ccccc3)O2)c(=O)[nH]c1=O | - | - | - | CEM + CEM TK- | 0.3 µM
Cc1cc([N+](=O)[O-])ccc1NC(=O)CSc1sc(Cl)nc1-c1ccc(Br)cc1Br | MTT | IIIB | L100I | MT-4 | 2.58 µM
O=c1oc(-c2ccccc2)cc(O)c1C(CC1CC1)SC1CCCCC1 | - | IIIB | - | H9 | 25 µM
Nc1ncnc2c1ncn2C1CC(CO)C1 | cytopathic effect / XTT | IIIB | - | CEM | 301 µM
CSc1ccc(OP(=O)(OC[C@@H]2C=C[C@H](n3cc(C)c(=O)[nH]c3=O)O2)OC[C@@H]2C=C[C@H](n3cc(C)c(=O)[nH]c3=O)O2)cc1 | cytopathic effect / trypan blue | IIIB | - | MT-4 | 15 µM
CNC(C)[C@H]1O[C@H](O[C@@H]2[C@@H](O)[C@H](O[C@@H]3OC[C@@](C)(O)[C@@H](NC)[C@@H]3O)[C@@H](NC(=O)[C@@H](N)CCCN=C(N)N)C[C@H]2NC(=O)[C@@H](N)CCCN=C(N)N)[C@H](NC(=O)[C@@H](N)CCCN=C(N)N)[C@@H](O)[C@@H]1O | - | NL4-3 | - | MT-4 | 15 µM
CC(C)=CCc1c(O)cc(O)c2c1OC(c1ccc(O)c(O)c1)CC2=O | MTT | IIIB | - | MT-4 | >100 µg/mL
Nc1ccn([C@H]2CC[C@@H](CO)O2)c(=O)n1 | cytopathic effect / MTT | IIIB | - | MT-4 | 0.66 µM

For reference, 7 entries again:

Cc1cn([C@H]2C[C@H](N=[N+]=[N-])[C@@H](CO)O2)c(=O)[nH]c1=O ; read by: p24 / ELISA ; strain: KM018 ; cells: PBMC ; result: 0.253 µM
Cc1cn([C@H]2C[C@H](N=[N+]=[N-])[C@@H](CO)O2)c(=O)n(N)c1=O ; read by: cytopathic effect / MTT ; strain: BRU ; cells: CEM-C113 + CEM/C113 ; result: 0.03 µM
O=c1oc(-c2ccccc2)cc(O)c1C(CC1CC1)SCc1ccccc1 ; strain: IIIB ; cells: H9 ; result: 33 µM
Cc1cn([C@H]2C=C[C@@H](COP(=O)(OCc3ccccc3)OCc3ccccc3)O2)c(=O)[nH]c1=O ; read by: cytopathic effect ; cells: CEM + CEM TK- ; result: 5.5 µM
Cc1cn([C@H]2CC[C@@H](CO)O2)c(=O)[nH]c1=O ; read by: p24 ; strain: LAV ; cells: H9 ; result: >100 µM
Cc1cn([C@H]2C=C[C@@H](COP(=O)(O)OCc3ccccc3)O2)c(=O)[nH]c1=O ; cells: CEM + CEM TK- ; result: 0.3 µM
CCCCCCCC(=O)O[C@]12C(C3C(OO)C(CO)=C[C@]4(O)C(=O)C(C)=CC4[C@@]3(O)[C@H](C)[C@H]1OC(=O)c1ccccc1)C2(C)C ; read by: p24 / ELISA ; strain: NL4-3 ; cells: MT-4 ; result: <0.005 µM